The values below are quoted from earlier work in paper PMC12800406.

In this data set the target is SARS-CoV-2 spike target of the cited XN-268s work (exact construct not stated) (SARS-CoV-2?) (UniProt P0DTC2). The following applies: BLI ([…], pH 7.4, 0.2% BSA, 0.05% Tween 20, 25 C; cited from earlier work.

Consider “CACGCATAACCGAGCTGGGGTGGGGTAGTGGTATGGAGCGTCAGTTGTTATGCGTG [XN-268s]”, for which the Kd is 4.26 nM.
